Compound potency records, mixed from different reports. Data source: NIAID ChemDB in PubChem.

Shared fields: enzyme or target tests

Inhibition is in % at the dose shown (toxicity tests: loss of growth or viability).

SMILES | target | endpoint | dose | strain | read by | agent | value
CO[C@@H]1[C@H](O)[C@@H](COP(=O)(O)OP(=O)(O)OP(=O)(O)O)O[C@H]1n1cnc2c(=O)[nH]c(N)nc21 | NS5B delta .21 | IC50 |  |  |  | Hepatitis C virus | 1.2 µM
COc1ccccc1-c1cc(-c2cccc(Cl)c2)n2nc(C(=O)O)cc2n1 | RNA-dependent RNA polymerase | IC50 |  |  |  | Hepatitis C virus | >10 µM
CC[C@@H]1C[C@]1(NC(=O)[C@@H]1C[C@@H](Oc2cc(-c3ccccc3)nc3cc(OC)ccc23)CN1C(=O)[C@@H](NC(=O)CC1CC1)C(C)C)C(=O)NS(=O)(=O)C1CC1 | NS3/NS4A protease | IC50 |  | BMS |  | Hepatitis C virus | <0.05 µM
CCn1c(-c2ccccc2OCc2ccc(C)cc2)nc2ccccc21 | NS5B RdRp activity | inhibition | 100 µM | 1b |  | Hepatitis C virus | 24.2%
Cc1ccc2nc(-c3ccc4nc(-c5ccc(NC(=O)c6ccccc6)cc5)sc4c3)sc2c1S(=O)(=O)O | NS3 helicase | IC50 |  |  | ATP / substrate cleavage / absorbance | Hepatitis C virus | 130 µM
C=C[C@@H]1C[C@]1(NC(=O)[C@@H]1C[C@@H](Oc2cc(-c3ccccc3)nc3cc(OC)ccc23)CN1C(=O)[C@@H](NC(=O)OC(C)(C)C)C(C)(C)C)C(=O)NS(=O)(=O)CC | NS3/NS4A protease | IC50 |  | BMS |  | Hepatitis C virus | <0.05 µM
N#Cc1cnn2c(C3CCCCC3)c(-c3ccc(O)cc3)cnc12 | RNA-dependent RNA polymerase | IC50 |  |  |  | Hepatitis C virus | >10 µM
Nc1nc2cnc(N3CCC(Oc4cc(F)ccc4Br)CC3)nc2s1 | Nonstructural protein 3 | IC50 |  |  | fluorescence | Hepatitis C virus | >100 µM
Clc1ccc(COc2ccccc2-c2nc3ccccc3[nH]2)cc1 | NS5B RdRp activity | inhibition | 100 µM | 1b |  | Hepatitis C virus | 0%
COC(=O)c1ccc(-c2ccc(Cl)cc2)c(COc2ccc(-c3cnc4c(-c5nn[nH]n5)cnn4c3C3CCCCC3)cc2)c1 | RNA-dependent RNA polymerase | IC50 |  |  |  | Hepatitis C virus | <1 µM
Cc1ccc(COc2ccccc2-c2nc3ccccc3[nH]2)cc1 | NS5B RdRp activity | inhibition | 100 µM | 1b |  | Hepatitis C virus | 0%
OCc1nnc(-c2ccc(N3CC(Oc4ccccc4C(F)(F)F)C3)nn2)o1 | Nonstructural protein 3 | IC50 |  |  | fluorescence | Hepatitis C virus | >100 µM
CO[C@@H]1[C@H](O)[C@@H](COP(=O)(O)OP(=O)(O)OP(=O)(O)O)O[C@H]1n1ccc2c(=O)[nH]c(N)nc21 | NS5B delta .21 | IC50 |  |  |  | Hepatitis C virus | 3.4 µM
O=C(O)c1cc2nc(-c3ccccc3Cl)cc(-c3ccccc3Cl)n2n1 | RNA-dependent RNA polymerase | IC50 |  |  |  | Hepatitis C virus | >10 µM
COc1ccc(-c2nc3ccc(NCc4ccc(Cl)c(C(F)(F)F)c4)cc3n(CCNC(C)=O)c2=O)cc1 | Nonstructural protein 3 | IC50 |  |  | fluorescence | Hepatitis C virus | >100 µM
Clc1ccc(-c2nc3ccccc3[nH]2)cc1Cl | NS5B RdRp activity | inhibition | 100 µM | 1b |  | Hepatitis C virus | 7.1%
C=C[C@@H]1C[C@]1(NC(=O)[C@@H]1C[C@@H](Oc2cc(-c3ccccc3)nc3cc(OC)ccc23)CN1C(=O)[C@@H](NC(=O)OC(C)(C)C)C(C)(C)C)C(=O)NS(=O)(=O)c1c(C(C)C)cc(C(C)C)cc1C(C)C | NS3/NS4A protease | IC50 |  | BMS |  | Hepatitis C virus | <5 µM
O=C(O)c1cc2nc(-c3ccc(Cl)cc3Cl)cc(-c3ccc(OCc4ccccc4)cc3)n2n1 | RNA-dependent RNA polymerase | IC50 |  |  |  | Hepatitis C virus | 1–10 µM
C=C[C@@H]1C[C@]1(NC(=O)[C@@H]1C[C@@H](Oc2cc(-c3ccccc3)nc3cc(OC)ccc23)CN1C(=O)[C@@H](NC(=O)OC(C)(C)C)C(C)(C)C)C(=O)NS(=O)(=O)c1cccc(C)c1 | NS3/NS4A protease | IC50 |  | BMS |  | Hepatitis C virus | <0.05 µM
Nc1nc(=O)n([C@@H]2C=C(F)[C@H](CO)O2)cc1F | DNA polymerase | IC50 |  |  |  | Hepatitis B virus | 0.22 µM
C=C[C@@H]1C[C@]1(NC(=O)[C@H]1C[C@@H](Oc2cc(-c3ccccc3)nc3cc(OC)ccc23)CN1C(=O)[C@H](CC1CCCCC1)NC(=O)OC(C)(C)C)C(=O)NS(=O)(=O)C(F)(F)F | NS3/NS4A protease | IC50 |  | BMS |  | Hepatitis C virus | <5 µM
Nc1ccn([C@@H]2CS[C@H](CO)O2)c(=O)n1 | DNA polymerase | IC50 |  |  |  | Hepatitis B virus | 0.01 µM
C=C[C@@H]1C[C@@]1(NC(=O)[C@@H]1C[C@@H](Oc2cc(-c3ccccc3)nc3cc(OC)ccc23)CN1C(=O)[C@H](CC1CCCCC1)NC(=O)OC(C)(C)C)C(=O)NS(=O)(=O)C(F)(F)F | NS3/NS4A protease | IC50 |  | BMS |  | Hepatitis C virus | <50 µM
COc1ccccc1-c1cc(-c2ccc(F)cc2)nc2cc(C(=O)O)nn12 | RNA-dependent RNA polymerase | IC50 |  |  |  | Hepatitis C virus | >10 µM
C=CCOC(=O)N[C@H](C(=O)N1C[C@H](Oc2cc(-c3ccccc3)nc3cc(OC)ccc23)C[C@H]1C(=O)N[C@]1(C(=O)NS(=O)(=O)C2CC2)C[C@H]1C=C)C(C)(C)C | NS3/NS4A protease | IC50 |  | BMS |  | Hepatitis C virus | <0.05 µM
CO[C@@H]1[C@H](O)[C@@H](COP(=O)(O)OP(=O)(O)OP(=O)(O)O)O[C@H]1n1ccc2c(N)ncnc21 | NS5B delta .21 | IC50 |  |  |  | Hepatitis C virus | 11 µM
O=C(O)c1cnn2c(C3CCCCC3)c(-c3cccc(OCc4cccc(C(F)(F)F)c4)c3)cnc12 | RNA-dependent RNA polymerase | IC50 |  |  |  | Hepatitis C virus | >10 µM
C=C[C@@H]1C[C@]1(NC(=O)[C@@H]1C[C@@H](Oc2cc(-c3ccccc3)nc3cc(OC)ccc23)CN1C(=O)[C@@H](NC(=O)OC(C)(C)C)C1CCCC1)C(=O)NS(=O)(=O)C1CC1 | NS3/NS4A protease | IC50 |  | BMS |  | Hepatitis C virus | <0.05 µM

ICn: concentration for n% inhibition. a–b is a range or a potency band. Rows are shuffled and stem from different studies. An empty or dashed field is not shown.